Compound potency records, mixed from different reports. Data source: NIAID ChemDB in PubChem.

All rows: tests in culture; species: Mycobacterium tuberculosis

ECn: concentration that inhibits the pathogen or its effect by n%. MIC bound: limit read from a one-dose screen. Percent inhibition refers to the dose given; in toxicity tests it is the harm to the cells. Conditions beyond the fields shown may differ between rows. Blank or dashed fields: not listed here. MIC50, MIC90 and the like: level of inhibition, or share of isolates inhibited.

compound	cells	read by	dose	mutations	strain	conditions	endpoint	value
CC1(C)CCc2c(c3ccccc3c3[nH]c(-c4c[nH]c5ccccc45)nc23)O1		resazurin			ATCC 35338		MIC	6.25 µg/mL
CC(C)=CCc1c(O)c2c(c3oc4cc5c(c(O)c4c(=O)c13)C=CC(C)(C)O5)C=CC(C)(C)O2					H37Ra		MIC	25 µg/mL
ClCC1CCC(OC2CCC(CCl)CC2)CC1							MIC	>0.08 µg/mL
CC1=C(C)C23Cn4c(=O)n(-c5ccccc5)c(=O)n4[C@]2(C)C1(C)[C@@H]3C		resazurin			H37Rv		MIC bound	>6.25 µg/mL
O=[N+]([O-])c1cccc(Sc2nnc(N3CCN(c4nc(N5CCN(c6ccccc6)CC5)c5ccccc5n4)CC3)o2)c1		agar / visual reading			H37Rv		MIC	25 µg/mL
CCCc1cc(=O)oc2c(C(=O)CC)c(OCC(=O)OCC)c3c(c12)OC(C)(C)CC3					H37Ra		MIC	>128 µg/mL
COC1CCCCC1OC1CCCCC1C							MIC	>0.11 µg/mL
C[N+]1(C)CCCC1C(=O)[O-]		BACTEC			H37Rv		MIC bound	>12.5 µg/mL
C#CCn1ncc2c(SCc3ccccc3)ncnc21		BACTEC	12.5 µM		H37Rv		inhibition	>90%
C[C@H]1COc2c(N3CCN(C)CC3)c(F)cc3c(=O)c(C(=O)O)cn1c23					44 isolates (resistant)		MIC50	0.5 µg/mL
Cc1ccccc1Sc1nnc(N2CCN(c3nc(N4CCN(c5ccccc5)CC4)c4ccccc4n3)CC2)o1		BACTEC / fluorescence			H37Rv		MIC	>6.25 µg/mL
CCCCCCCSc1ccc(/C=C/C(N)=S)cc1					H37Rv		MIC	134 µM
CCCCCc1ccc(Oc2cnccc2C(=O)O)c(O)c1							MIC100	25 µg/mL
CC(NNC(=O)c1ccncc1)c1cccc(C(F)(F)F)c1					Isoniazid-resistant		MBC	>50 µg/mL
Cc1ccc(NNC(=O)N2CCN(c3nc(N4CCN(c5ccccc5)CC4)c4ccccc4n3)CC2)cc1		agar / visual reading	50 µg/mL		H37Rv		inhibition	92%
O=S(=O)(Nc1cc(Cl)c(NS(=O)(=O)c2ccccc2)c(S(=O)(=O)c2ccccc2)c1Cl)c1ccccc1		BACTEC	12.5 µg/mL		H37Rv		inhibition	4%
CC(C)=CCc1c(O)cc2oc3cc(O)c4c(c3c(=O)c2c1O)C=CC(C)(C)O4					H37Ra		MIC	6.25 µg/mL
CCCCCc1ccc(Oc2ccccc2N)c(O)c1							MIC100	3.13 µg/mL
CCCCCN(C)Cc1cc(C(=O)OCC)ccc1N(CC(OC)OC)C(=O)c1cc2cc(F)cc([N+](=O)[O-])c2[nH]1		resazurin			H37Rv		MIC	8 µg/mL
NNC(=O)c1ccncc1		resazurin		Isoniazid-resistant rINH	H37Rv		MIC	>4 µM
CSc1ccc(/C=C/C(N)=S)cc1					H37Rv		MIC	191 µM
CCc1ccccc1N=C(Nn1c(C)nc2ccccc2c1=O)SC		resazurin			H37Rv		EC50	25 µg/mL
COc1cc2oc3cc(O)c(OC)c(CC=C(C)C)c3c(=O)c2c(O)c1CC=C(C)C					H37Ra		MIC	6.25 µg/mL
CC1(C)CCC2=C(O1)c1ccccc1C(=O)C2=O		resazurin			ATCC 35338		MIC	1.56 µg/mL
O=C(NNc1ccccc1)N1CCN(c2nc(N3CCN(c4ccccc4)CC3)c3ccccc3n2)CC1		agar / visual reading			H37Rv		MIC	100 µg/mL
CCCCCCCCCCCCN(CCCCCCCCCCCC)C[C@H]1O[C@H](O[C@H]2O[C@H](CN(CCCCCCCCCCCC)CCCCCCCCCCCC)[C@@H](O)[C@H](O)[C@H]2O)[C@H](O)[C@@H](O)[C@@H]1O					H37Ra		MIC	>128 µg/mL
O=C(NNc1cccc([N+](=O)[O-])c1)N1CCN(c2nc(N3CCN(c4ccccc4)CC3)c3ccccc3n2)CC1		agar / visual reading			H37Rv		MIC	50 µg/mL
CCCc1cc(=O)oc2c(C(=O)CC)c(OCC)c3c(c12)OC(C)(C)CC3					H37Ra		MIC	>128 µg/mL
O=C1OC2CCCCC2C2CCCCC12							MIC	0.05 µg/mL
O=C(N/N=C/c1cccc(C(F)(F)F)c1)c1ccncc1					Rifampicin-resistant		MIC	0.1 µg/mL
N[C@@H]1CONC1=O		BACTEC	12.8 µg/mL		H37Rv		inhibition	5%
CCSc1ccc(C(N)=S)cc1					H37Rv		MIC	254 µM
O=[N+]([O-])c1cccn2nc([C@@H]3O[C@H](CO)[C@@H](O)[C@H]3O)nc12		BACTEC	12.5 µg/mL		H37Rv		inhibition	16%
CC(NNC(=O)c1ccncc1)c1ccc(Cl)c(Cl)c1					H37Rv (isoniazid-resistant)		MIC	>31.25 µg/mL
C#CCOc1c2c(c3c(CCC)cc(=O)oc3c1C(=O)CC)OC(C)(C)CC2					H37Ra		MIC	>128 µg/mL
CCCCCCCNc1cncc(C(=O)NCc2ccccc2)n1		resazurin			H37Rv		MIC	3.13 µg/mL
C=CCOc1c2c(c3c(CCC)cc(=O)oc3c1C(=O)CC)OC(C)(C)CC2					H37Ra		MIC	>128 µg/mL
COc1ccc2sc3c(C)ccc(NCC4CCCN5CCCCC45)c3c(=O)c2c1	VERO	BACTEC			H37Rv		MIC	3.13 µg/mL
COc1cccc2c1C(=O)c1ccc3cc(C)cc(O)c3c1C2=O		GFP			H37Ra		EC50	19.7 µM
CCCCCc1ccc(Oc2cccnc2)c(O)c1							MIC100	3.13 µg/mL
O=[N+]([O-])C1CN=C(NC(c2ccc(OCc3ccccc3)cc2)C2CC2)S1							MIC	>25 µg/mL
O=Cc1ccc(NNC(=O)N2CCN(c3nc(N4CCN(c5ccccc5)CC4)c4ccccc4n3)CC2)cc1		BACTEC / fluorescence			H37Rv		MIC	>6.25 µg/mL
CCc1ccc(C(=O)N/N=C(\C)[C@]2(O)Cc3c(O)c4c(c(O)c3[C@H](O[C@H]3C[C@H](N)[C@H](O)[C@H](C)O3)C2)C(=O)c2c(OC)cccc2C4=O)cc1					PZA-R		MIC	12.5 µg/mL
OCC1CCCCC1C1CCCCC1O							MIC	>1 µg/mL
COc1cc2oc3ccc(O)cc3c(=O)c2c(O)c1CC=C(C)C					H37Ra		MIC	>200 µg/mL
OC1CCC(OC2CCCCC2O)CC1							MIC	0.13 µg/mL
Cc1c(F)c(N2CCNC(C)C2)cc2c1c(=O)c(C(=O)O)cn2C1CC1					22 strains		MIC90	3.13 µg/mL
CC(C)Sc1ccc(C(N)=S)cc1					H37Rv		MIC	284 µM
CC(=O)N1C(=O)CC23c4ccccc4C(=O)N2CCCN13		BACTEC	12.8 µg/mL		H37Rv		inhibition	2%
C=C(C)COc1cc2c(c3oc(=O)cc(CCC)c13)C(O)[C@H](C)[C@@H](C)O2					H37Ra		MIC	>128 µg/mL
CCCCCCCCCCCCCCCCS(=O)(=O)NC[C@H]1O[C@H](O[C@H]2O[C@H](CNS(=O)(=O)CCCCCCCCCCCCCCCC)[C@@H](O)[C@H](O)[C@H]2O)[C@H](O)[C@@H](O)[C@@H]1O					H37Ra		MIC	>32 µg/mL
CSC(=Nc1ccccc1)Nn1c(C)nc2ccccc2c1=O		resazurin			H37Rv		EC50	25 µg/mL
COc1ccccc1NNC(=O)N1CCN(c2nc(N3CCN(c4ccccc4)CC3)c3ccccc3n2)CC1		BACTEC / fluorescence	6.25 µg/mL		H37Rv		inhibition	0%
CC[n+]1cnc(N)c2c(-c3ccc(Cl)cc3)cn(-c3ccc(C)cc3)c21.[I-]		BACTEC	12.5 µg/mL		H37Rv		inhibition	83%
NC(=O)c1cnccn1		BACTEC / fluorescence			H37Rv		MIC	3.12 µg/mL
O=C(NC(=S)c1ccc[nH]1)Nc1ccccc1		resazurin			H37Rv		MIC bound	>6.25 µg/mL
COC1CCCC(OC2CCCC(OC)C2)C1							MIC	>0.13 µg/mL
CCCC(C)Sc1ccc(C(=S)NC)cc1					H37Rv		MIC	>315 µM
c1ccc(Oc2cccc3ncccc23)cc1							MIC	>0.06 µg/mL
CSC(=Nc1ccc(Cl)cc1)Nn1c(C)nc2ccccc2c1=O		resazurin			H37Rv		EC50	12.5 µg/mL
CCOC(=O)c1cnc2ccc(C)cn2c1=O		resazurin			H37Rv		MIC bound	>6.25 µg/mL
C=CCSc1ccc(C(N)=S)cc1					H37Rv		MIC	334 µM
S=C(S)NNc1ccccc1		BACTEC			H37Rv		MIC	≥12.5 µg/mL
C=CCOc1cc2c(c3oc(=O)cc(CCC)c13)C(O)[C@H](C)[C@@H](C)O2					H37Ra		MIC	>128 µg/mL
C=C(C)C(O)Cc1c(O)cc2oc3cc(O)c(OC)c(CC=C(C)C)c3c(=O)c2c1O					H37Ra		MIC	100 µg/mL
COC(=O)C1c2cc3c(cc2C(OC2OC(C)C(OC)C(C)(OC)C2OC)CC1(C)O)C(=O)c1c(O)cc2c(c1C3=O)OC1OC2(C)C(O)C([N+](C)(C)[O-])C1O		BACTEC			H37Rv		MIC	≥12.8 µg/mL
CSC(=Nc1ccc([N+](=O)[O-])cc1)Nn1c(C)nc2ccccc2c1=O		resazurin			H37Rv		EC50	6.25 µg/mL
CC(=O)Nc1nc(NC(C)=O)c2nc(CCN(C)c3ccc(C(=O)O)cc3)cnc2n1		BACTEC			H37Rv		MIC	≥12.8 µg/mL
CCCCS(=O)(=O)NC[C@H]1O[C@H](O[C@H]2O[C@H](CNS(=O)(=O)CCC)[C@@H](O)[C@H](O)[C@H]2O)[C@H](O)[C@@H](O)[C@@H]1O					H37Ra		MIC	>128 µg/mL
CCCSC(=S)Nc1nc2ccc(C)cc2s1		BACTEC			H37Rv		MIC bound	≤128 µg/mL
CCCCC(CC)CNC[C@H]1O[C@H](O[C@H]2O[C@H](CO)[C@@H](O)[C@H](O)[C@H]2O)[C@H](O)[C@@H](O)[C@@H]1O					H37Ra		MIC	>128 µg/mL
CN[C@@H]1[C@H](O[C@H]2[C@H](O[C@H]3[C@H](O)[C@@H](O)[C@H](N=C(N)N)[C@@H](O)[C@@H]3N=C(N)N)O[C@@H](C)[C@]2(O)C=O)O[C@@H](CO)[C@H](O)[C@H]1O		resazurin			H37Rv	pH 6	MIC	0.8 µM
CCSc1ccc(C(=S)NC)cc1					H37Rv		MIC	>378 µM
Cn1nc(C(N)=O)c(=O)[nH]c1=S		resazurin			H37Rv		MIC bound	>6.25 µg/mL
OC1CCCCC1C1CCCCC1CBr							MIC	1 µg/mL
CSC(=Nc1ccc(Br)cc1)Nn1c(C)nc2ccccc2c1=O		resazurin			H37Rv		EC50	12.5 µg/mL
CCCCCc1ccc(Oc2ccccc2Br)c(O)c1							MIC100	3.125 µg/mL
NNC(=O)c1ccncc1		GFP			H37Ra		MIC	0.69 µM
O=C1C2=C(c3ccccc31)C(c1ccccc1)NC(=S)N2		BACTEC	12.5 µg/mL		H37Rv		inhibition	50%
CC(=O)Nc1ccc(/C=N/NC(N)=S)cc1		BACTEC			9 strains		EC50	≤0.5 µg/mL
CC1OC2CC(=O)OC2c2c(O)c3c(c(O)c21)C(=O)C1=C(C3=O)C2CC(O)C1(O)C(C)O2		resazurin			H37Rv		MIC bound	>6.25 µg/mL
C/C(=N\NC(=O)c1ccncc1)c1ccccc1					Rifampicin-resistant		MIC	0.2 µg/mL
CCN(Cc1cccc(S(=O)(=O)[O-])c1)c1ccc(C(=C2C=CC(=[N+](CC)Cc3cccc(S(=O)(=O)O)c3)C=C2)c2ccccc2)cc1		BACTEC	6.25 µg/mL		H37Rv		inhibition	0%
CC1(C)Oc2c(c3nc4ccccc4nc3c3ccccc23)C=C1Br		resazurin			ATCC 35338		MIC	6.25 µg/mL
C[C@H]1CC[C@]2(NC1)O[C@H]1C[C@H]3[C@@H]4CC[C@H]5C[C@@H](O)CC[C@]5(C)[C@H]4CC[C@]3(C)[C@H]1[C@@H]2C		BACTEC	128 µg/mL		H37Rv		inhibition	85%
O=C(NNCc1ccccc1)c1ccncc1					Isoniazid-resistant		MIC	>6.25 µg/mL